Test results from PubChem BioAssay (NCATS).
The list shows a part of the results, in another mix than the full data. Inconclusive results are not listed. The source made the active and inactive calls. Calls come from the whole dose curve.

The chains behind the UniProt entries cited, without tags or fusion partners.
UniProt P09958, whole entry: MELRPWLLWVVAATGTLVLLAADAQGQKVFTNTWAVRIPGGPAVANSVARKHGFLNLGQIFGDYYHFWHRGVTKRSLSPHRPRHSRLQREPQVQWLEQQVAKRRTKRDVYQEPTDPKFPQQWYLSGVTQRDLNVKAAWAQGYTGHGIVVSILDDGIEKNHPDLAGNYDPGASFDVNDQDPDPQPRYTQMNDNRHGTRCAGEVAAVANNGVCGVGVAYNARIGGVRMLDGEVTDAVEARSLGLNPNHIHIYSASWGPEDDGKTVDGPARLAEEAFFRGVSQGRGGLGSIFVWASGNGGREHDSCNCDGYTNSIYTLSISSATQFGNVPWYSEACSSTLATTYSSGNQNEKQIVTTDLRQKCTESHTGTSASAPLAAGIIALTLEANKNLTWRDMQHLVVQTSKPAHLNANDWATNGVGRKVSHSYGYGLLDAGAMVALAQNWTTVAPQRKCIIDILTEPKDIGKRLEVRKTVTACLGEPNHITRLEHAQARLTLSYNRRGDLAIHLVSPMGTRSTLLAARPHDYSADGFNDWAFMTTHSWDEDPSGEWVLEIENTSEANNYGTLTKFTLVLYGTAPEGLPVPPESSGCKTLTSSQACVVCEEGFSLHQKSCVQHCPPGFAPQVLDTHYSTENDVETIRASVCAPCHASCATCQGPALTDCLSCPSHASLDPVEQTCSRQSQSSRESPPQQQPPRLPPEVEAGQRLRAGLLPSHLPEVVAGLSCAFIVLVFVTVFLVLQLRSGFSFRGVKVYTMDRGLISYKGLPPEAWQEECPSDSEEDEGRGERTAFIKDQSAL
UniProt P00784, whole entry: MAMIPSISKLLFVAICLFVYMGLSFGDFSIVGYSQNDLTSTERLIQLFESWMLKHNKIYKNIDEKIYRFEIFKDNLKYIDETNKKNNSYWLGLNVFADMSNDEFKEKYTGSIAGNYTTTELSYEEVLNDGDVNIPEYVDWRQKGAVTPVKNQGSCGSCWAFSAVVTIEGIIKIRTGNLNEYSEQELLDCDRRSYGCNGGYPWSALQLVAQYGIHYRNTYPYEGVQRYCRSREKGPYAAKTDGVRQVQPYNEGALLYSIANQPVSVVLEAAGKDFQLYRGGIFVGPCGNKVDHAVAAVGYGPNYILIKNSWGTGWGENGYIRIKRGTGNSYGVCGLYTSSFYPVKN

How the values were obtained:
[1] = biological target: Polyprotein P1234 (Chikungunya virus (strain S27-African prototype)) (UniProt Q8JUX6); assay: Secondary cell base assay for inhibitors of NSP2Pro Chikungunya virus (CHIKV) (AID 1964100); conditions: cell-based CHIKV nsP2 protease reporter assay; at 51.1 µM (top of the series); note: nearly all actives have a fitted effect of over 70% in size
[2] = biological target: Polyprotein P1234 (Chikungunya virus (strain S27-African prototype)) (UniProt Q8JUX6); assay: Selectivity profile for inhibitors of NSP2Pro chikungunya virus (CHIKV): Full length NSP2 enzyme counterscreen (CHIKV-NSP2) (AID 1964101); conditions: Full-length CHIKV NSP2 protease enzymatic counterscreen; at 50.7 µM (top of the series); note: nearly all actives have a fitted effect of over 65% in size
Furin (Homo sapiens) = Furin (Homo sapiens) (UniProt P09958); assay: Selectivity profile for inhibitors of NSP2Pro chikungunya virus (CHIKV): Human furin counterscreen (AID 1964102); conditions: Recombinant human furin enzymatic counterscreen, fluorogenic substrate; at 50.6 µM (top of the series)
[3] = biological target: Polyprotein P1234 (Chikungunya virus (strain S27-African prototype)) (UniProt Q8JUX6); assay: Selectivity profile for inhibitors of NSP2Pro chikungunya virus (CHIKV): Endogenous NS2/3 peptide Counterscreen (AID 1964103); conditions: Purified CHIKV nsP2 protease, endogenous NS2/3 peptide cleavage; at 51 µM (top of the series); note: nearly all actives have a fitted effect of over 55% in size
Papain (Carica papaya) = Papain (Carica papaya) (UniProt P00784); assay: Selectivity profile for inhibitors of NSP2Pro chikungunya virus (CHIKV): Papain Counterscreen (AID 1964104); conditions: purified papain protease activity, enzymatic inhibition; at 51 µM (top of the series)
[4] = tested on: Chikungunya virus nsP2 protease; assay: Confirmatory qHTS for inhibitors of NSP2Pro chikungunya virus (CHIKV) (AID 1964105); conditions: CHIKV nsP2 protease enzymatic activity; at 25.5 µM (top of the series); note: nearly all actives have a fitted effect of over 75% in size

Measured: activity change, negative = inhibition
% is set by controls: 0 for no effect and ±100 for the full control effect.

CN(C)C1(CNC(=O)c2ccc(C(C)(C)C)cc2)CCCCC1
inactive: [1] 108% | [2] -25.7% | Furin (Homo sapiens) -2.56% | [3] -13.6% | Papain (Carica papaya) -2.09% | [4] -2.85%
